Compound potency records, mixed from different reports. Data source: NIAID ChemDB in PubChem.

Shared fields: growth or infection tests

Lines come from different laboratories, so protocols vary. A number after MIC or MFC names an inhibition level or a share of isolates. Percent inhibition refers to the dose given; in toxicity tests it is the harm to the cells. An empty or dashed field is not shown. ECn: concentration that inhibits the pathogen or its effect by n%.

smiles	read by	species	measure	cells	strain	dose	value
CCOC(=O)c1c(C)nc(NCCCNc2ccnc3cc(Cl)ccc23)nc1-c1ccccc1		Cryptococcus gattii	MIC99		LMM 818		11.3 µg/mL
C=Cc1cn([C@@H]2O[C@H](CO)[C@@H](O)[C@@H]2O)c(=O)[nH]c1=O	plaque count	Varicella zoster virus	inhibition	HELF	Asahikawa	0.01 µg/mL	0%
Oc1ccccc1C=Nc1ccccc1O		Cryptococcus gattii	MIC99		135L/03		11.3 µg/mL
Nc1ccc(S(=O)(=O)O)cc1	cytopathic effect	Herpes simplex virus	inhibition	Human amnion AV3 cells		50 µg/mL	10%
Cc1cn([C@@H]2O[C@H](CO)[C@@H](O)[C@@H]2O)c(=O)[nH]c1=O	plaque count	Varicella zoster virus	inhibition	HELF	Asahikawa	1 µg/mL	100%
CCOC(=O)c1ccc(OCCC2CCN(c3ccc(C)nn3)CC2)cc1	neutral red	Rhinovirus	EC50	KB	FEB (ICAM-1 receptor group 3)		0.108 µM
O=C(O)c1ccc(S(=O)(=O)[O-])cc1C(=O)O	cytopathic effect	Herpes simplex virus	inhibition	Human amnion AV3 cells		10 µg/mL	0%
CCOC(=O)c1c(C)nc(NCCCCNc2ccnc3cc(Cl)ccc23)nc1-c1ccc(F)cc1		Cryptococcus gattii	MIC99		547/OTTI-97-PI-10		16 µg/mL
O=c1[nH]c(=O)n([C@H]2C[C@H](O)[C@@H](CO)O2)cc1I	plaque count	Varicella zoster virus	inhibition	HELF	OKA	1 µg/mL	100%
CCC(CC)[C@H](NC(C)=O)[C@@H]1[C@H](O)[C@@H](C(=O)O)C[C@H]1N=C(N)N	visual reading	Influenza A virus	EC50	MDCK	H1N1 A/TEXAS/36/91		0.05 µM
O=C(O)c1cc(S(=O)(=O)[O-])ccc1O	cytopathic effect	Rhinovirus	inhibition	Human embryonic lung cells		50 µg/mL	0%
Oc1cccc(C=Nc2ccccc2O)c1		Cryptococcus gattii	MIC99		L-28/02		5.7 µg/mL
O=C(Nc1ccc(S(=O)(=O)[O-])c2cccc(S(=O)(=O)[O-])c12)c1ccccc1	cytopathic effect	Herpes simplex virus	inhibition	Human conjunctiva cells		10 µg/mL	0%
C=CCc1ccc(O)c(OC)c1	turbidity	Candida tropicalis	MIC90		3219		500 µg/mL
CCOC(=O)c1c(C)nc(OCCCNc2ccnc3cc(Cl)ccc23)nc1-c1ccccc1		Cryptococcus gattii	MIC99		ATCC 32608		16 µg/mL
Nc1ccc2c(O)cc(S(=O)(=O)[O-])cc2c1S(=O)(=O)[O-]	cytopathic effect	Herpes simplex virus	inhibition	Human amnion AV3 cells		50 µg/mL	0%
Nc1nc(=O)n([C@@H]2O[C@H](CO)[C@@H](O)[C@@H]2F)cc1I	plaque count	Varicella zoster virus	inhibition	HELF	KANNO	0.001 µg/mL	0%
Cc1ccc(C(=O)Nc2ccc(S(=O)(=O)O)c3cc(S(=O)(=O)O)cc(S(=O)(=O)O)c23)cc1NC(=O)c1cccc(NC(=O)Nc2cccc(C(=O)Nc3cc(C(=O)Nc4ccc(S(=O)(=O)O)c5cc(S(=O)(=O)O)cc(S(=O)(=O)O)c45)ccc3C)c2)c1	cytopathic effect	Herpes simplex virus	inhibition	Human amnion AV3 cells		5 µg/mL	0%
CCOC(=O)/C=C/[C@H](C[C@@H]1CCNC1=O)NC(=O)[C@@H](CC(=O)[C@@H](NC(=O)c1cc(C)on1)C(C)C)Cc1ccc(F)cc1	cytopathic effect / visual reading	Rhinovirus	EC50	OHIO HELA-I	Isolate 3		0.02 µg/mL
O=c1[nH]c(=O)n([C@H]2C[C@H](O)[C@@H](CO)O2)cc1/C=C/Br	plaque count	Varicella zoster virus	inhibition	HELF	YS	0.001 µg/mL	8%
Nc1cccc(S(=O)(=O)O)c1	cytopathic effect	Adenovirus	inhibition	Human embryonic lung cells	TYPE 3	50 µg/mL	0%
C/C=C\[C@@H]1C[C@H](C(=O)O)N[C@H]1[C@@H](NC(C)=O)[C@](C)(CCC)OC	plaque count	Influenza A virus	EC50	MDCK	Influenza A H3N2 isolate C34C		≤0.03 µg/mL

3 of the rows above, restated:

smiles	read by	species	measure	cells	strain	dose	value
Nc1cccc(S(=O)(=O)O)c1	cytopathic effect	Adenovirus	inhibition	Human embryonic lung cells	TYPE 3	50 µg/mL	0%
Cc1ccc(C(=O)Nc2ccc(S(=O)(=O)O)c3cc(S(=O)(=O)O)cc(S(=O)(=O)O)c23)cc1NC(=O)c1cccc(NC(=O)Nc2cccc(C(=O)Nc3cc(C(=O)Nc4ccc(S(=O)(=O)O)c5cc(S(=O)(=O)O)cc(S(=O)(=O)O)c45)ccc3C)c2)c1	cytopathic effect	Herpes simplex virus	inhibition	Human amnion AV3 cells		5 µg/mL	0%
Nc1nc(=O)n([C@@H]2O[C@H](CO)[C@@H](O)[C@@H]2F)cc1I	plaque count	Varicella zoster virus	inhibition	HELF	KANNO	0.001 µg/mL	0%